# Assay results reported in patent publication US20220089656A1.
# Target: human FcγRII (CD32) expressed on K562 cells (human) (UniProt P12318)
substance,measurement,value
armY-ACE2 fusion protein (Protein M fused to human angiotensin-converting enzyme 2),percent of cells in gate M1,5.9%
